Measured values from several laboratories, pooled; numbers as filed in NIAID ChemDB.

A number after MIC or MFC names an inhibition level or a share of isolates. MIC bound comes from a single tested concentration. An empty or dashed field is not shown. Lines come from different laboratories, so protocols vary. ICn: concentration for n% inhibition. Percent inhibition refers to the dose given; in toxicity tests it is the harm to the cells.

structure | kind | endpoint | target | strain or isolate | method | organism | dose | result
CC(=O)C1=C(O)C(Nc2ccccc2)=CC(=O)C1=Nc1ccccc1 | culture | MIC bound |  | H37Rv | BACTEC | Mycobacterium tuberculosis |  | ≤128 µg/mL
CN(C)c1ccc(O)cc1.O=S(=O)(O)O | culture | MIC |  | H37Rv |  | Mycobacterium tuberculosis |  | 50 µg/mL
Cc1ccc(N2CCN(c3cncc(-c4ccc5ccccc5c4)n3)CC2)c(C)c1 | target | inhibition | UL97 kinase |  |  | Cytomegalovirus | 10 µM | >15%
c1cc(NCCNC23CC4CC(CC(C4)C2)C3)c2cccnc2c1 | culture | MIC |  |  |  | Mycobacterium tuberculosis |  | 6.25 µM
CSC(=S)NNC(C)c1nccc2ccccc12 | culture | MIC |  | CS-R |  | Mycobacterium tuberculosis |  | 3.2 µg/mL
CCOc1ccc(-c2cncc(N3CCN(c4ccc(C(C)=O)cc4)CC3)n2)cc1 | target | inhibition | UL97 kinase |  |  | Cytomegalovirus | 10 µM | >15%
C=CC1=C(C)C(=O)N/C1=C\c1[nH]c(Cc2[nH]c(/C=C3/NC(=O)C(C(C)SC(C)=O)=C3C)cc2CCC(=O)O)c(CCC(=O)O)c1C | culture | MIC bound |  | H37Rv | BACTEC | Mycobacterium tuberculosis |  | >12.5 µg/mL
COc1ccc(N)cc1NC(=O)CC(=O)c1ccccc1OC | culture | MIC |  | H37Rv |  | Mycobacterium tuberculosis |  | >100 µg/mL
COc1ccc(OC)c(CCNCCNCc2ccc(C(F)(F)F)cc2)c1 | culture | MIC |  |  |  | Mycobacterium tuberculosis |  | 12.5 µM
NC(=S)Nc1ccc([N+](=O)[O-])cc1 | culture | MIC |  | H37Rv |  | Mycobacterium tuberculosis |  | 25 µg/mL
OCc1ccccc1Sc1ccccc1CNCCNCC1(O)CCCCC1 | culture | MIC |  |  |  | Mycobacterium tuberculosis |  | 50 µM
O=C1c2cccc(Cl)c2C(=O)c2cccc(Cl)c21 | culture | MIC |  | H37Rv |  | Mycobacterium tuberculosis |  | >100 µg/mL
CC(C)=CCC/C(C)=C/CNCCNCCC(c1ccccc1)c1ccccc1 | culture | MIC |  |  |  | Mycobacterium tuberculosis |  | 50 µM
CCOC(=O)C1C(OC(C)=O)C(C(=O)OCC)C(C)N(C(C)=O)C1C | culture | MIC |  | H37Rv |  | Mycobacterium tuberculosis |  | >100 µg/mL
O=C1c2ccccc2C(=O)c2c1c(O)cc1oc(-c3ccccc3)nc21 | culture | MIC bound |  | H37Rv | resazurin | Mycobacterium tuberculosis |  | >6.25 µg/mL
Fc1ccccc1N1CCN(c2cncc(-c3ccsc3)n2)CC1 | target | IC50 | UL97 kinase |  |  | Cytomegalovirus |  | <10 µM
CCCCCCCCCCCC#CCCCCC(=O)O | culture | inhibition |  | H37Rv | BACTEC | Mycobacterium tuberculosis | 12.5 µg/mL | 27%
C=CCc1ccc(O)c(OC)c1 | culture | MIC90 |  | 3054 | turbidity | Candida albicans |  | 500 µg/mL
CCC(C(N)=O)C(N)=O | culture | MIC |  | H37Rv |  | Mycobacterium tuberculosis |  | >100 µg/mL
CNC(=S)SC1=NS(=O)(=O)c2ccccc2N1 | culture | MIC bound |  | H37Rv | BACTEC | Mycobacterium tuberculosis |  | ≤128 µg/mL
CN(C)c1cccc(-c2cncc(N3CCN(c4ccncc4)CC3)n2)c1 | target | IC50 | UL97 kinase |  |  | Cytomegalovirus |  | <100 µM
COc1cc2c(cc1OC)C1c3cc(OC)c(OC)cc3CC(=O)N1CC2 | culture | MIC |  | H37Rv | BACTEC | Mycobacterium tuberculosis |  | 12.5 µg/mL
CCOC(=O)NCCCCC(=O)O | culture | MIC |  | H37Rv |  | Mycobacterium tuberculosis |  | >100 µg/mL
FC(F)(F)c1ccc(N2CCN(c3cncc(-c4ccoc4)n3)CC2)cc1 | target | IC50 | UL97 kinase |  |  | Cytomegalovirus |  | <100 µM
C[C@H](NCCNCCc1ccc(Cl)cc1Cl)C1CCCCC1 | culture | MIC |  |  |  | Mycobacterium tuberculosis |  | 50 µM
O=C(O)c1cc(-c2ccccc2O)nc2cc(S(=O)(=O)[O-])ccc12.[Na+] | culture | MIC |  | H37Rv |  | Mycobacterium tuberculosis |  | 100 µg/mL
C=CCC1=C(C)C(OC(=O)/C=C/c2ccco2)CC1=O | culture | inhibition |  | H37Rv | BACTEC | Mycobacterium tuberculosis | 12.5 µg/mL | 10%
CCCCCCCCCCCNCCNCCCCC | culture | MIC |  |  |  | Mycobacterium tuberculosis |  | 50 µM
CCC(=O)C(=O)N(C)c1ccccc1 | culture | MIC |  | H37Rv |  | Mycobacterium tuberculosis |  | >100 µg/mL
COc1ccc2c(c1)[n+](=O)c(C(=O)C/C(=N\NC(=O)C[N+](C)(C)C)C(=O)Nc1cc(Cl)ccc1Cl)c(C)n2[O-].[Cl-] | culture | MIC bound |  | H37Rv | BACTEC | Mycobacterium tuberculosis |  | >12.5 µg/mL
NC(=S)Nc1ccccc1Cl | culture | MIC |  | H37Rv |  | Mycobacterium tuberculosis |  | 100 µg/mL
Fc1ccc(N2CCCCC2)c(NC(=S)c2ccncc2)c1 | host protein | inhibition | MST2 |  | kinase activity |  | 10 µM | 13%
Clc1ccc(CCNCCNCCCc2ccccc2)c(Cl)c1 | culture | MIC |  |  |  | Mycobacterium tuberculosis |  | 25 µM
C/C(=N\NC(=S)SCc1ccccc1)c1ccccn1 | culture | MIC bound |  | H37Rv | BACTEC | Mycobacterium tuberculosis |  | ≤128 µg/mL
NCCNCCO | culture | MIC |  | H37Rv |  | Mycobacterium tuberculosis |  | >100 µg/mL
COc1ccc(C2c3cn[nH]c3CC3CCCCC32)cc1 | culture | MIC bound |  | H37Rv | BACTEC | Mycobacterium tuberculosis |  | >12.5 µg/mL
CC(Cc1c[nH]c2ccccc12)NCCNCC(c1ccccc1)c1ccccc1 | culture | MIC |  |  |  | Mycobacterium tuberculosis |  | 6.25 µM
Cc1cc2nc3n(c2cc1C)C(c1c(F)cccc1F)SC3 | culture | inhibition |  | H37Rv | BACTEC | Mycobacterium tuberculosis | 12.5 µg/mL | 72%
COc1cc(-c2ccc(N)c(OC)c2)ccc1N | culture | MIC |  | H37Rv |  | Mycobacterium tuberculosis |  | >100 µg/mL
CC(=O)c1cccc(-c2cncc(N3CCN(c4ccc(F)cc4F)CC3)n2)c1 | target | IC50 | UL97 kinase |  |  | Cytomegalovirus |  | <100 µM
CC(C)c1ccc(N)cc1 | culture | MIC |  | H37Rv |  | Mycobacterium tuberculosis |  | 0.19 µg/mL
O=c1c2ccccc2n2n1Cc1ccccc1C2 | culture | inhibition |  | H37Rv | resazurin | Mycobacterium tuberculosis | 6.25 µg/mL | 33%
CC1C(=O)N(c2ccccc2)C1c1ccccc1 | culture | MIC |  | H37Rv |  | Mycobacterium tuberculosis |  | >100 µg/mL
CN1C(=O)CCCCCCCCCCSc2ccccc21 | culture | MIC |  | H37Rv | BACTEC | Mycobacterium tuberculosis |  | ≥12.5 µg/mL
OCc1ccc(-c2cncc(N3CCN(c4ccncc4)CC3)n2)cc1 | target | IC50 | UL97 kinase |  |  | Cytomegalovirus |  | <10 µM
Cc1cc(S(=O)(=O)Nc2nnc3c(Cl)cc(C(F)(F)F)cn23)c(S)cc1Cl | culture | inhibition |  | H37Rv | BACTEC | Mycobacterium tuberculosis | 12.5 µg/mL | 0%
CC1(C)CN=C(c2cccc(N)c2)O1 | culture | MIC |  | H37Rv |  | Mycobacterium tuberculosis |  | >100 µg/mL
CCn1c(=O)c2ncnnc2n(CC)c1=O | culture | MIC bound |  | H37Rv | BACTEC | Mycobacterium tuberculosis |  | >12.5 µg/mL
CC1(C)[C@H]2CC[C@@H](CNCCNCCCCCO)[C@@H]1C2 | culture | MIC |  |  |  | Mycobacterium tuberculosis |  | 50 µM
O=C(CCCCCC(=O)c1ccccc1)c1ccccc1 | culture | MIC |  | H37Rv |  | Mycobacterium tuberculosis |  | 50 µg/mL
CC(=O)c1ccc(-c2cncc(N3CCN(c4ccc(C)cc4C)CC3)n2)s1 | target | inhibition | UL97 kinase |  |  | Cytomegalovirus | 10 µM | >15%
Cc1nn(C(=O)c2cccnc2)c(-c2ccccc2)c1N=Nc1ccc(S(=O)(=O)Nc2ncccn2)cc1 | culture | inhibition |  | H37Rv | resazurin | Mycobacterium tuberculosis | 6.25 µg/mL | 6%
Nc1nccc(Cl)n1 | culture | MIC |  | H37Rv |  | Mycobacterium tuberculosis |  | >100 µg/mL
C=C1C(=O)O[C@@H]2C[C@@]3(C)CCC[C@H](C)C3=C[C@H]12 | culture | inhibition |  | H37Rv | BACTEC | Mycobacterium tuberculosis | 12.5 µg/mL | 48%
COC(=O)c1cc(C)c(Br)c(OC)c1 | culture | MIC |  | H37Rv |  | Mycobacterium tuberculosis |  | >100 µg/mL
O=C1CC(SC(=S)N2CCCCC2)C(=O)N1c1ccccc1 | culture | MIC |  | CS-R |  | Mycobacterium tuberculosis |  | 3.2 µg/mL
CCOC(=O)c1cncs1 | culture | MIC |  | H37Rv |  | Mycobacterium tuberculosis |  | >100 µg/mL

A second listing of 6 rows from above:

C=C1C(=O)O[C@@H]2C[C@@]3(C)CCC[C@H](C)C3=C[C@H]12 ; kind: culture ; endpoint: inhibition ; strain or isolate: H37Rv ; method: BACTEC ; organism: Mycobacterium tuberculosis ; dose: 12.5 µg/mL ; result: 48%
CCOC(=O)c1cncs1 ; kind: culture ; endpoint: MIC ; strain or isolate: H37Rv ; organism: Mycobacterium tuberculosis ; result: >100 µg/mL
CC(C)c1ccc(N)cc1 ; kind: culture ; endpoint: MIC ; strain or isolate: H37Rv ; organism: Mycobacterium tuberculosis ; result: 0.19 µg/mL
C=CCc1ccc(O)c(OC)c1 ; kind: culture ; endpoint: MIC90 ; strain or isolate: 3054 ; method: turbidity ; organism: Candida albicans ; result: 500 µg/mL
Clc1ccc(CCNCCNCCCc2ccccc2)c(Cl)c1 ; kind: culture ; endpoint: MIC ; organism: Mycobacterium tuberculosis ; result: 25 µM
O=C1c2ccccc2C(=O)c2c1c(O)cc1oc(-c3ccccc3)nc21 ; kind: culture ; endpoint: MIC bound ; strain or isolate: H37Rv ; method: resazurin ; organism: Mycobacterium tuberculosis ; result: >6.25 µg/mL